Data as given in PubChem BioAssay AID624099 (ICCB-Longwood, 2012).
Shown is one part, drawn at random, of about 21,000 reagents tested. Over the whole deposit, 497 (2.4%) got an active call. 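Higher z means weaker E2 silencing; only reporter increases were scored, and knock-downs that hurt cell survival may mask genuine repressor factors.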 Reagents against one gene are numbered here.

Screen: 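Human genes that papillomavirus E2 requires to repress the HPV18 LCR promoter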 (primary screen)
Cell system: human C33A cervical carcinoma cells (HPV-negative) stably expressing BPV1 E2 and an HPV18 LCR luciferase reporter
Reagents: siRNA pool against human genes, 40 nM
Time to read-out: 72 h
Read-out: 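Per-well luciferase luminescence, z-scored on each plate against the plate mean and SD with control wells left out, then averaged across three replicate plates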
Direction: mean z-score and z-score: higher = stronger reporter signal, weaker E2 silencing
Rule for the call: 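Hit if mean z-score reaches 2 and two or more of three replicate z-scores also reach 2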

Target gene	reagent	mean z-score	z-score, replicate A	z-score, replicate B	z-score, replicate C	activity call
KCNMB3	1	-1.53	-1.35	-1.58	-1.67	inactive
ANAPC5 (anaphase promoting complex subunit 5)	1	0.19	-0.06	0.19	0.44	inactive
FLYWCH2 (FLYWCH family member 2)	1	-1.73	-2.14	-1.25	-1.79	inactive
DLG4 (discs large MAGUK scaffold protein 4)	1	-0.54	-0.71	-0.66	-0.23	inactive
MTERF3 (mitochondrial transcription termination factor 3)	1	-0.75	-0.72	-1.08	-0.46	inactive
IMP4 (IMP U3 small nucleolar ribonucleoprotein 4)	1	-0.44	-0.33	-0.68	-0.32	inactive
TMEM88 (transmembrane protein 88)	1	-1.05	-0.93	-1.11	-1.12	inactive
FITM1 (fat storage inducing transmembrane protein 1)	1	0.31	0.15	0.37	0.42	inactive
VMA22 (vacuolar ATPase assembly factor VMA22)	1	0.13	0.17	0.06	0.17	inactive
PLXNA4 (plexin A4)	1	-1.66	-1.4	-1.67	-1.92	inactive
PLXNA4 (plexin A4)	2	1.42	0.93	1.48	1.86	inactive
BBOF1 (basal body orientation factor 1)	1	-0.38	-0.54	-0.32	-0.26	inactive
CSF1 (colony stimulating factor 1)	1	0.34	0.49	0.45	0.08	inactive
PLCZ1 (phospholipase C zeta 1)	1	0.82	1.01	0.85	0.61	inactive
HPSE (heparanase)	1	-1	-1.03	-0.94	-1.01	inactive
MT-ND2 (mitochondrially encoded NADH dehydrogenase 2)	1	0.1	0.42	-0.11	-0.01	inactive
GTF2F2 (general transcription factor IIF subunit 2)	1	-0.35	-0.55	-0.36	-0.16	inactive
TBXAS1 (thromboxane A synthase 1)	1	-0.11	-0.66	-0.17	0.49	inactive
SEPTIN1 (septin 1)	1	0.24	0.01	0.54	0.16	inactive
OGDHL (oxoglutarate dehydrogenase L)	1	-0.95	-0.66	-1.01	-1.18	inactive
CIAPIN1 (cytokine induced apoptosis inhibitor 1)	1	-0.63	-0.44	-0.58	-0.88	inactive
MIX23 (mitochondrial matrix import factor 23)	1	1.01	0.88	1.32	0.85	inactive
ADRA1A (adrenoceptor alpha 1A)	1	0.09	-0.58	0.12	0.73	inactive
KANSL1 (KAT8 regulatory NSL complex subunit 1)	1	1.14	1.18	1.23	1.03	inactive
BUD23 (BUD23 rRNA methyltransferase and ribosome maturation factor)	1	0.36	1.13	-0.07	0.03	inactive
LOC339025 (retired record)	1	-0.23	-0.39	-0.21	-0.1	inactive
GUK1 (guanylate kinase 1)	1	-0.68	-0.95	-0.65	-0.43	inactive
NTRK3 (neurotrophic receptor tyrosine kinase 3)	1	0.36	0.82	0.17	0.08	inactive
MOGAT1 (monoacylglycerol O-acyltransferase 1)	1	0.19	-0.15	0.05	0.69	inactive
ORC6 (origin recognition complex subunit 6)	1	1.14	1.38	1.09	0.95	inactive
LOC342669 (retired record)	1	-0.16	-0.39	0.03	-0.12	inactive
PDCL (phosducin like)	1	0.26	0.7	0.08	0.01	inactive
ADAM23 (ADAM metallopeptidase domain 23)	1	-0.18	-0.02	-0.32	-0.2	inactive
RAMP1 (receptor activity modifying protein 1)	1	1.52	1.79	1.41	1.36	inactive
NIBAN1 (niban apoptosis regulator 1)	1	0.68	0.91	0.59	0.56	inactive
TMEM86B (transmembrane protein 86B)	1	-0.16	-0.39	-0.1	0.01	inactive
OPCML (opioid binding protein/cell adhesion molecule like)	1	0.52	0.79	0.37	0.4	inactive
REXO1 (RNA exonuclease 1 homolog)	1	-0.32	-0.4	-0.38	-0.18	inactive
SYNPO2L (synaptopodin 2 like)	1	0.56	0.42	0.45	0.82	inactive
GSS (glutathione synthetase)	1	0.1	0.2	0.15	-0.05	inactive
RNF220 (ring finger protein 220)	1	-0.17	-0.07	-0.07	-0.38	inactive
FAAP20 (FA core complex associated protein 20)	1	-1.26	-1.32	-1.45	-1	inactive
PCDHB11 (protocadherin beta 11)	1	-0.39	-0.31	-0.4	-0.46	inactive
SZRD1 (SUZ RNA binding domain containing 1)	1	0.84	0.72	0.53	1.26	inactive
B3GALT5 (beta-1,3-galactosyltransferase 5)	1	-0.22	-0.27	-0.18	-0.21	inactive
FZR1 (fizzy and cell division cycle 20 related 1)	1	0.24	0.03	0.4	0.28	inactive
PTGER1 (prostaglandin E receptor 1)	1	-0.71	-0.4	-0.84	-0.88	inactive
RTL8C (retrotransposon Gag like 8C)	1	0.29	0.26	0.43	0.17	inactive
MECOM (MDS1 and EVI1 complex locus)	1	-0.24	0.22	-0.38	-0.57	inactive
MECOM (MDS1 and EVI1 complex locus)	2	1.05	1.36	0.9	0.88	inactive
KCTD13 (potassium channel tetramerization domain containing 13)	1	-0.31	-0.24	-0.37		inactive
NUCB1 (nucleobindin 1)	1	1.16	1.25	1.61	0.62	inactive
EMC1 (ER membrane protein complex subunit 1)	1	0.16	0.21	0.16	0.11	inactive
DMRTC2 (DMRT like family C2)	1	-0.34	-0.61	-0.65	0.24	inactive
SCGB1C1 (secretoglobin family 1C member 1)	1	-1.12	-1.24	-1.14	-0.97	inactive
HERC1	1	-0.29	-0.68	-0.1	-0.09	inactive
GARIN1B (golgi associated RAB2 interactor 1B)	1	0.07	0.08	-0.02	0.16	inactive

Already shown: an excerpt of the list.
Target gene	reagent	mean z-score	z-score, replicate A	z-score, replicate B	z-score, replicate C	activity call
PLXNA4 (plexin A4)	1	-1.66	-1.4	-1.67	-1.92	inactive
PLXNA4 (plexin A4)	2	1.42	0.93	1.48	1.86	inactive
BBOF1 (basal body orientation factor 1)	1	-0.38	-0.54	-0.32	-0.26	inactive
CSF1 (colony stimulating factor 1)	1	0.34	0.49	0.45	0.08	inactive
PLCZ1 (phospholipase C zeta 1)	1	0.82	1.01	0.85	0.61	inactive
HPSE (heparanase)	1	-1	-1.03	-0.94	-1.01	inactive
MT-ND2 (mitochondrially encoded NADH dehydrogenase 2)	1	0.1	0.42	-0.11	-0.01	inactive
